{"source": "paper PMC6194325", "target": "OmpR::His6 (phosphorylated by acetyl-phosphate) (UniProt A6TF28)", "assay": "EMSA", "conditions": "25 mM acetyl-phosphate, 10 mM Mg2+, complex at 1.3 uM OmpR, 10 ng DNA; recombinant protein; residues 1-239; protein details: His6 (pET30b); probe letters rebuilt from the primers and the genome", "note": "The exact form of at least one protein or probe is not confirmed."}
{"sequence": "AGGGATCACCACTGCCAGAATATTGCGCTTCATCATTATTTATTACCCTCATTAATATTTTTTATATGAACACGTGCCACTGCCGTCAATAAGTTCTGTCAATAAAAACTTACAGAACCATTGATGAGAGTTTGGTGTCTGAAGGCATCTTTCCATCCGCGACAACGTTTCGCTAGCCGGAAAATGCTACGAATATCTCATATGAGTAACAAAACGAAAAATCATGTAACTAAATGTGTATTTAACGGAACTTTGTGAACTTAATCAAAATTCCGTTCCACCGGATAAGGGCAAACGCCATTACTTATCTATCTATATGAATTATTTATGATTAATTTGGCTAAGCGGCAATTCGTTCATTTTGTGTATTGAATTCGTATTCTTTTTATTCAGTCTCTATCTTTGCAAGATGTGCGGGTAAAGGTCAAAAAATGAGCAAATTTATCAGCGGTTTTGCTCAGTTATGAACATAAAGTGCGATCTACATCACCAGGATGCACCGAAACAGTGCGTAACATAATTGTGATTTCCGGGTCTTGATGTTTAAGGTTGTTGAATTTTACTAACAGTAATTGACATAAAAAAAGGCCAGCTTGCGCTGGCCTTTCAGATTGATGTC (double strand) [PompF]", "values": [{"measurement": "binding result", "result": "binds"}]}
